Compound potency records, mixed from different reports. Data source: NIAID ChemDB in PubChem.

All rows: tests in culture; species: Mycobacterium avium intracellulare

Neighbouring rows are from separate reports. A number after MIC or MFC names an inhibition level or a share of isolates.

{"structure": "CC[C@H]1OC(=O)[C@H](C)[C@@H](O[C@H]2C[C@@](C)(OC)[C@@H](O)[C@H](C)O2)[C@H](C)[C@@H](O[C@@H]2O[C@H](C)C[C@H](N(C)C)[C@H]2O)[C@](C)(OC)C[C@@H](C)C(=O)[C@H](C)[C@@H](O)[C@]1(C)O", "measure": "MIC", "value": "0.13 µg/mL"}
{"structure": "CC1CN(c2cc3c(cc2F)c(=O)c(C(=O)O)cn3-c2ccc(F)cc2F)CCN1", "measure": "MIC", "value": "0.8 µg/mL"}
{"structure": "COc1c(N2CCNC(C)C2)c(F)cc2c(=O)c(C(=O)O)cn(C3CC3)c12", "measure": "MIC90", "strain or isolate": "20 strains", "value": "12.5 µg/mL"}
{"structure": "CO[C@H]1/C=C/O[C@@]2(C)Oc3c(C)c(O)c4c(O)c(c5c(c4c3C2=O)NC2(CCN(CC(C)C)CC2)N=5)=NC(=O)/C(C)=C\\C=C\\[C@H](C)[C@H](O)[C@@H](C)[C@@H](O)[C@@H](C)[C@H](OC(C)=O)[C@@H]1C", "measure": "MIC", "strain or isolate": "CDC1", "value": "0.075 µg/mL"}
{"structure": "N[C@@H]1CN(c2c(F)cc3c(=O)c(C(=O)O)cn([C@@H]4C[C@@H]4F)c3c2Cl)CC12CC2", "measure": "MIC50", "strain or isolate": "16 isolates", "value": "12.5 µg/mL"}
{"structure": "CO[C@H]1/C=C/O[C@@]2(C)Oc3c(C)c(O)c4c(O)c(c(/C=N/N5CCN(C)CC5)c(O)c4c3C2=O)NC(=O)/C(C)=C\\C=C\\[C@H](C)[C@H](O)[C@@H](C)[C@@H](O)[C@@H](C)[C@H](OC(C)=O)[C@@H]1C", "measure": "MIC", "strain or isolate": "CIPT 140310030", "value": "0.1 µg/mL"}
{"structure": "NC[C@H]1O[C@H](O[C@H]2[C@H](O)[C@@H](O[C@H]3O[C@H](CO)[C@@H](O)[C@H](N)[C@H]3O)[C@H](N)C[C@@H]2N)[C@H](O)[C@@H](O)[C@@H]1O", "measure": "MBC", "value": ">32 µg/mL"}
{"structure": "CC1CCc2cc(F)cc3c(=O)c(C(=O)O)cn1c23", "measure": "MIC", "value": "82.1 µg/mL"}
{"structure": "CCC(C)N1CCN(c2cc(=O)c3nc4c(oc3c2)c2c(=O)c3c(O)c(C)c5c(c34)=C(O)[C@@](C)(O/C=C/[C@H](OC)[C@@H](C)[C@@H](OC(C)=O)[C@H](C)[C@H](O)[C@H](C)[C@@H](O)[C@@H](C)/C=C/C=C(/C)C(=O)N2)O5)CC1", "measure": "MIC90", "strain or isolate": "31 strains", "value": "0.2 µg/mL"}
{"structure": "CCn1cc(C(=O)O)c(=O)c2ccc(-c3ccncc3)cc21", "measure": "MIC", "value": "68.8 µg/mL"}
{"structure": "NCC[C@H](O)C(=O)N[C@@H]1C[C@H](N)[C@@H](O[C@H]2O[C@H](CN)[C@@H](O)[C@H](O)[C@H]2O)[C@H](O)[C@H]1O[C@H]1O[C@H](CO)[C@@H](O)[C@H](N)[C@H]1O", "measure": "MBC", "value": "16 µg/mL"}
{"structure": "CC[C@H](C)N1CCN(c2cc(=O)c3nc4c(oc3c2)c2c(=O)c3c(O)c(C)c5c(c34)=C(O)[C@@](C)(O/C=C/[C@H](OC)[C@@H](C)[C@@H](OC(C)=O)[C@H](C)[C@H](O)[C@H](C)[C@@H](O)[C@@H](C)/C=C/C=C(/C)C(=O)N2)O5)CC1", "measure": "MIC50", "strain or isolate": "31 strains", "value": "0.1 µg/mL"}
{"structure": "CO[C@H]1/C=C/O[C@@]2(C)Oc3c(C)c(O)c4c(O)c(c5c(c4c3C2=O)NC2(CCN(CC(C)C)CC2)N=5)=NC(=O)/C(C)=C\\C=C\\[C@H](C)[C@H](O)[C@@H](C)[C@@H](O)[C@@H](C)[C@H](OC(C)=O)[C@@H]1C", "measure": "MIC50", "strain or isolate": "20 isolates", "value": "0.5 µg/mL"}
{"structure": "C[C@H]1COc2c(N3CCN(C)CC3)c(F)cc3c(=O)c(C(=O)O)cn1c23", "measure": "MIC50", "strain or isolate": "20 strains", "value": "25 µg/mL"}
{"structure": "CN1CCN(c2c(F)cc3c(=O)c(C(=O)O)cn(CCF)c3c2F)CC1", "measure": "MIC90", "strain or isolate": "16 isolates", "value": ">100 µg/mL"}
{"structure": "C[C@@H]1CN(c2c(F)c(N)c3c(=O)c(C(=O)O)cn(C4CC4)c3c2F)C[C@H](C)N1", "measure": "MIC", "value": "0.3 µg/mL"}
{"structure": "CC[C@@H](CO)NCCN[C@@H](CC)CO", "measure": "MBC", "value": ">32 µg/mL"}
{"structure": "CNC1CCCN(c2c(F)cc3c(=O)c(C(=O)O)cn(C4CC4)c3c2OC)C1", "measure": "MIC50", "strain or isolate": "16 isolates", "value": "50 µg/mL"}
{"structure": "NNC(=O)c1ccncc1", "measure": "MBC", "value": ">32 µg/mL"}
{"structure": "Cc1c(N2C[C@@H](N)C3(CC3)C2)c(F)c(N)c2c(=O)c(C(=O)O)cn(C3CC3)c12", "measure": "MIC50", "strain or isolate": "20 strains", "value": "12.5 µg/mL"}
{"structure": "Cc1c(F)c(N2CCNC(C)C2)cc2c1c(=O)c(C(=O)O)cn2C1CC1", "measure": "MIC", "value": "1.8 µg/mL"}
{"structure": "C[C@@H]1CN(c2c(F)c(N)c3c(=O)c(C(=O)O)cn(C4CC4)c3c2F)C[C@H](C)N1", "measure": "MIC50", "strain or isolate": "20 strains", "value": "12.5 µg/mL"}
{"structure": "CCn1cc(C(=O)O)c(=O)c2cnc(N3CCNCC3)nc21", "measure": "MIC", "value": "95.8 µg/mL"}
{"structure": "CCn1cc(C(=O)O)c(=O)c2cc(F)c(N3CCN(C)CC3)cc21", "measure": "MIC50", "strain or isolate": "7 isolates", "value": ">16 µg/mL"}
{"structure": "COc1c(N2C[C@@H]3CCCN[C@@H]3C2)c(F)cc2c(=O)c(C(=O)O)cn(C3CC3)c12", "measure": "MIC", "value": "0.2 µg/mL"}
{"structure": "CO[C@H]1/C=C/O[C@@]2(C)Oc3c(C)c(O)c4c(=O)c(c5oc6cc(N7CCN(CC(C)C)CC7)cc(=O)c6nc5c4c3=C2O)NC(=O)/C(C)=C\\C=C\\[C@H](C)[C@H](O)[C@@H](C)[C@@H](O)[C@@H](C)[C@H](OC(C)=O)[C@@H]1C", "measure": "MIC", "strain or isolate": "N-260", "value": "0.06 µg/mL"}
{"structure": "C[C@@H]1CN(c2c(F)c(N)c3c(=O)c(C(=O)O)cn(C4CC4)c3c2F)C[C@H](C)N1", "measure": "MIC90", "strain or isolate": "16 isolates", "value": "12.5 µg/mL"}
{"structure": "NNC(=O)c1ccncc1", "measure": "MIC90", "strain or isolate": "20 strains", "value": "100 µg/mL"}
{"structure": "CCn1cc(C(=O)O)c(=O)c2cc(F)c(N3CCNCC3)cc21", "measure": "MIC90", "strain or isolate": "16 isolates", "value": ">100 µg/mL"}
{"structure": "NC[C@H]1O[C@H](O[C@H]2[C@H](O)[C@@H](O[C@H]3O[C@H](CO)[C@@H](O)[C@H](N)[C@H]3O)[C@H](N)C[C@@H]2N)[C@H](O)[C@@H](O)[C@@H]1O", "measure": "MIC", "strain or isolate": "N-499 (HIV-)", "value": "1 µg/mL"}

The first 4 rows once more:

CC[C@H]1OC(=O)[C@H](C)[C@@H](O[C@H]2C[C@@](C)(OC)[C@@H](O)[C@H](C)O2)[C@H](C)[C@@H](O[C@@H]2O[C@H](C)C[C@H](N(C)C)[C@H]2O)[C@](C)(OC)C[C@@H](C)C(=O)[C@H](C)[C@@H](O)[C@]1(C)O ; measure: MIC ; value: 0.13 µg/mL
CC1CN(c2cc3c(cc2F)c(=O)c(C(=O)O)cn3-c2ccc(F)cc2F)CCN1 ; measure: MIC ; value: 0.8 µg/mL
COc1c(N2CCNC(C)C2)c(F)cc2c(=O)c(C(=O)O)cn(C3CC3)c12 ; measure: MIC90 ; strain or isolate: 20 strains ; value: 12.5 µg/mL
CO[C@H]1/C=C/O[C@@]2(C)Oc3c(C)c(O)c4c(O)c(c5c(c4c3C2=O)NC2(CCN(CC(C)C)CC2)N=5)=NC(=O)/C(C)=C\C=C\[C@H](C)[C@H](O)[C@@H](C)[C@@H](O)[C@@H](C)[C@H](OC(C)=O)[C@@H]1C ; measure: MIC ; strain or isolate: CDC1 ; value: 0.075 µg/mL